# Experiment: Fluorescence emission spectra without and with saturating ligand (wavelength shift, ΔIstd, ΔRmax)
# Settings: for ΔRmax (maximum standard ratiometric change): apo vs saturating ligand, optimal pair of emission bands; for λmax,apo (nm) / λmax,sat (nm): emission maximum; for λmax,apo (nm): absence of ligand; for λmax,sat (nm): saturating ligand (ligand column); for ΔIstd: standard intensity change; for ΔIstd / ΔRmax: unbound vs ligand-saturated; for ΔRmax: standard ratiometric change
# Method: Fluorimetry. All measurements were conducted with an SLM Aminco-Bowman series 2 fluorimeter, with sample stirring at 25° C. Fluorescence emission spectra were acquired with excitation and emission slit widths of 4 and 8 nm, respectively. Photomultiplier tube potential was maintained between 400 and 800 volts. Protein concentrations were in the range of 50 to 1000 nM. Fluorophore-specific excitation was at the following approximate wavelengths: tryptophan, 290 nm; acrylodan, 390 nm; fluorescein, 485 nm; pyrene, 340 nm; NBD and NBDE, 490 nm; JPW4039, 485 nm; JPW4042, 470 nm; JPW4045, 470 nm.
# Assessment of fluorescent biosensor function. Fluorescence emission spectra of bPBP-fluorophore conjugates were recorded in the absence and presence of saturating ligand concentrations. Spectral changes were characterized by four parameters: wavelength shift (the difference between the wavelengths of emission maximum in the unbound and ligand-saturated states), direction of intensity change (increase or decrease in intensity at the wavelengths of maximum emission in the two states), standard intensity change (ΔIstd), and standard ratiometric change (ΔR). ΔIstd is defined as the normalized intensity change relative to the average intensity, determined at the wavelength mid-point between the two emission maxima:
# [formula] where λstd=(λmax, unbound+λmax, saturated)/2 and I1, I2 are the fluorescence intensities at λstd of each spectrum respectively (FIG. 4A). ΔR is defined in terms of two emission bands, A1 ([λ1, λ2]) and A2 ([λ3, λ4]) (FIG. 4B):
# [formula] where ^∘A1, […] the areas in the absence of ligand, and ^∞A1, ^∞A2 the areas in the presence of saturating ligand. A computer program was used to enumerate ΔR for all possible pairs of wavelength bands in the two spectra, to identify the optimal sensing condition, defined as the maximum value of ΔR. Adjustable parameters of the algorithm, and their values used for ΔRmax quantities reported here, are: step size (2 nm), step width (10 nm), minimum integration area limit (fraction of total: 0.1), and maximum integration area limit (fraction of total: 1).
molecule,measurement,value
"arabinose BP K301C-NBD: arabinose BP K301C (C64A) mutant conjugated to NBD (conjugate, UniProt P02924 24-329, looked up, variant K301C C64A, NBD label) L-arabinose-binding …: ENLKLGFLVKQPEEPWFQTEWKFADKAGKDLGFEVIKIAVPDGEKTLNAIDSLAASGAKGFVIATPDPKLGSAIVAKARGYDMKVIAVDDQFVNAKGKPMDTVPLVMMAATKIGERQGQELYKEMQKRGWDVKESAVMAITANELDTARRRTTGSMDALKAAGFPEKQIYQVPTKSNDIPGAFDAANSMLVQHPEVKHWLIVGMNDSTVLGGVRATEGQGFKAADIIGIGINGVDAVSELSKAQATGFYGSLLPSPDVHGYKSSEMLYNWVAKDVEPPKFTEVTDVVLITRDNFKEELEKCGLGGK",ΔRmax (maximum standard ratiometric change),3.2
"arabinose BP L253C-fluorescein: arabinose BP L253C (C64A) mutant conjugated to fluorescein (conjugate, UniProt P02924 24-329, looked up, variant L253C C64A, fluorescein conjugate) L-arabinose-binding …: ENLKLGFLVKQPEEPWFQTEWKFADKAGKDLGFEVIKIAVPDGEKTLNAIDSLAASGAKGFVIATPDPKLGSAIVAKARGYDMKVIAVDDQFVNAKGKPMDTVPLVMMAATKIGERQGQELYKEMQKRGWDVKESAVMAITANELDTARRRTTGSMDALKAAGFPEKQIYQVPTKSNDIPGAFDAANSMLVQHPEVKHWLIVGMNDSTVLGGVRATEGQGFKAADIIGIGINGVDAVSELSKAQATGFYGSLCPSPDVHGYKSSEMLYNWVAKDVEPPKFTEVTDVVLITRDNFKEELEKKGLGGK",ΔRmax (maximum standard ratiometric change),2.7
"ribose BP T135C-acrylodan: ribose BP T135C mutant conjugated to acrylodan (conjugate, UniProt P02925 26-296, looked up, variant T135C, acrylodan label) Ribose import binding protein …: KDTIALVVSTLNNPFFVSLKDGAQKEADKLGYNLVVLDSQNNPAKELANVQDLTVRGTKILLINPTDSDAVGNAVKMANQANIPVITLDRQATKGEVVSHIASDNVLGGKIAGDYIAKKAGEGAKVIELQGIAGCSAARERGEGFQQAVAAHKFNVLASQPADFDRIKGLNVMQNLLTAHPDVQAVFAQNDEMALGALRALQTAGKSDVMVVGFDGTPDGEKAVNDGKLAATIAQLPDQIGAKGVETADKVLKGEKVQAKYPVDLKLVVKQ",ΔRmax (maximum standard ratiometric change),6.3
"ribose BP A234C-JPW4045: ribose BP A234C mutant conjugated to dye JPW4045 (conjugate, UniProt P02925 26-296, looked up, variant A234C, JPW4045 dye conjugate) Ribose import binding protein …: KDTIALVVSTLNNPFFVSLKDGAQKEADKLGYNLVVLDSQNNPAKELANVQDLTVRGTKILLINPTDSDAVGNAVKMANQANIPVITLDRQATKGEVVSHIASDNVLGGKIAGDYIAKKAGEGAKVIELQGIAGTSAARERGEGFQQAVAAHKFNVLASQPADFDRIKGLNVMQNLLTAHPDVQAVFAQNDEMALGALRALQTAGKSDVMVVGFDGTPDGEKAVNDGKLAATICQLPDQIGAKGVETADKVLKGEKVQAKYPVDLKLVVKQ",ΔRmax (maximum standard ratiometric change),4.1
"Glu/Asp BP G211C Fluorescein (conjugate, UniProt P37902 23-302, looked up, variant G211C, fluorescein label) Glutamate/aspartate import …: DDAAPAAGSTLDKIAKNGVIVVGHRESSVPFSYYDNQQKVVGYSQDYSNAIVEAVKKKLNKPDLQVKLIPITSQNRIPLLQNGTFDFECGSTTNNVERQKQAAFSDTIFVVGTRLLTKKGGDIKDFANLKDKAVVVTSGTTSEVLLNKLNEEQKMNMRIISAKDHGDSFRTLESGRAVAFMMDDALLACERAKAKKPDNWEIVGKPQSQEAYGCMLRKDDPQFKKLMDDTIAQVQTSGEAEKWFDKWFKNPIPPKNLNMNFELSDEMKALFKEPNDKALN","λmax,apo (nm)",522
same,"λmax,sat (nm)",521
same,ΔIstd,0.03
same,ΔRmax,0.18
"Glu/Asp BP G211C NBD (conjugate, UniProt P37902 23-302, looked up, variant G211C, NBD dye conjugate) Glutamate/aspartate import …: DDAAPAAGSTLDKIAKNGVIVVGHRESSVPFSYYDNQQKVVGYSQDYSNAIVEAVKKKLNKPDLQVKLIPITSQNRIPLLQNGTFDFECGSTTNNVERQKQAAFSDTIFVVGTRLLTKKGGDIKDFANLKDKAVVVTSGTTSEVLLNKLNEEQKMNMRIISAKDHGDSFRTLESGRAVAFMMDDALLACERAKAKKPDNWEIVGKPQSQEAYGCMLRKDDPQFKKLMDDTIAQVQTSGEAEKWFDKWFKNPIPPKNLNMNFELSDEMKALFKEPNDKALN","λmax,apo (nm)",538
same,"λmax,sat (nm)",538
same,ΔIstd,0.07
same,ΔRmax,0.32
"Glu/Asp BP Q123C JPW4039 (conjugate, UniProt P37902 23-302, looked up, variant Q123C, JPW4039 dye conjugate) Glutamate/aspartate import …: DDAAPAAGSTLDKIAKNGVIVVGHRESSVPFSYYDNQQKVVGYSQDYSNAIVEAVKKKLNKPDLQVKLIPITSQNRIPLLQNGTFDFECGSTTNNVERQKCAAFSDTIFVVGTRLLTKKGGDIKDFANLKDKAVVVTSGTTSEVLLNKLNEEQKMNMRIISAKDHGDSFRTLESGRAVAFMMDDALLAGERAKAKKPDNWEIVGKPQSQEAYGCMLRKDDPQFKKLMDDTIAQVQTSGEAEKWFDKWFKNPIPPKNLNMNFELSDEMKALFKEPNDKALN","λmax,apo (nm)",592
same,"λmax,sat (nm)",588
same,ΔIstd,0.05
same,ΔRmax,0.75
"Glu/Asp BP Q123C JPW4045 (conjugate, UniProt P37902 23-302, looked up, variant Q123C, JPW4045 dye conjugate) Glutamate/aspartate import …: DDAAPAAGSTLDKIAKNGVIVVGHRESSVPFSYYDNQQKVVGYSQDYSNAIVEAVKKKLNKPDLQVKLIPITSQNRIPLLQNGTFDFECGSTTNNVERQKCAAFSDTIFVVGTRLLTKKGGDIKDFANLKDKAVVVTSGTTSEVLLNKLNEEQKMNMRIISAKDHGDSFRTLESGRAVAFMMDDALLAGERAKAKKPDNWEIVGKPQSQEAYGCMLRKDDPQFKKLMDDTIAQVQTSGEAEKWFDKWFKNPIPPKNLNMNFELSDEMKALFKEPNDKALN","λmax,apo (nm)",640
same,"λmax,sat (nm)",641
same,ΔIstd,0.00
same,ΔRmax,0.88
"Glu/Asp BP Q123C Acrylodan (conjugate, UniProt P37902 23-302, looked up, variant Q123C, acrylodan label) Glutamate/aspartate import …: DDAAPAAGSTLDKIAKNGVIVVGHRESSVPFSYYDNQQKVVGYSQDYSNAIVEAVKKKLNKPDLQVKLIPITSQNRIPLLQNGTFDFECGSTTNNVERQKCAAFSDTIFVVGTRLLTKKGGDIKDFANLKDKAVVVTSGTTSEVLLNKLNEEQKMNMRIISAKDHGDSFRTLESGRAVAFMMDDALLAGERAKAKKPDNWEIVGKPQSQEAYGCMLRKDDPQFKKLMDDTIAQVQTSGEAEKWFDKWFKNPIPPKNLNMNFELSDEMKALFKEPNDKALN","λmax,apo (nm)",498
same,"λmax,sat (nm)",495
same,ΔIstd,0.10
same,ΔRmax,0.40
"Glu/Asp BP Q123C Fluorescein (conjugate, UniProt P37902 23-302, looked up, variant Q123C, fluorescein label) Glutamate/aspartate import …: DDAAPAAGSTLDKIAKNGVIVVGHRESSVPFSYYDNQQKVVGYSQDYSNAIVEAVKKKLNKPDLQVKLIPITSQNRIPLLQNGTFDFECGSTTNNVERQKCAAFSDTIFVVGTRLLTKKGGDIKDFANLKDKAVVVTSGTTSEVLLNKLNEEQKMNMRIISAKDHGDSFRTLESGRAVAFMMDDALLAGERAKAKKPDNWEIVGKPQSQEAYGCMLRKDDPQFKKLMDDTIAQVQTSGEAEKWFDKWFKNPIPPKNLNMNFELSDEMKALFKEPNDKALN","λmax,apo (nm)",524
same,"λmax,sat (nm)",522
same,ΔIstd,0.13
same,ΔRmax,2.23
"Glu/Asp BP Q123C NBD (conjugate, UniProt P37902 23-302, looked up, variant Q123C, NBD conjugate) Glutamate/aspartate import …: DDAAPAAGSTLDKIAKNGVIVVGHRESSVPFSYYDNQQKVVGYSQDYSNAIVEAVKKKLNKPDLQVKLIPITSQNRIPLLQNGTFDFECGSTTNNVERQKCAAFSDTIFVVGTRLLTKKGGDIKDFANLKDKAVVVTSGTTSEVLLNKLNEEQKMNMRIISAKDHGDSFRTLESGRAVAFMMDDALLAGERAKAKKPDNWEIVGKPQSQEAYGCMLRKDDPQFKKLMDDTIAQVQTSGEAEKWFDKWFKNPIPPKNLNMNFELSDEMKALFKEPNDKALN","λmax,apo (nm)",544
same,"λmax,sat (nm)",542
same,ΔIstd,0.01
same,ΔRmax,0.53
"Glu/Asp BP T129C JPW4039 (conjugate, UniProt P37902 23-302, looked up, variant T129C, JPW4039 dye conjugate) Glutamate/aspartate import …: DDAAPAAGSTLDKIAKNGVIVVGHRESSVPFSYYDNQQKVVGYSQDYSNAIVEAVKKKLNKPDLQVKLIPITSQNRIPLLQNGTFDFECGSTTNNVERQKQAAFSDCIFVVGTRLLTKKGGDIKDFANLKDKAVVVTSGTTSEVLLNKLNEEQKMNMRIISAKDHGDSFRTLESGRAVAFMMDDALLAGERAKAKKPDNWEIVGKPQSQEAYGCMLRKDDPQFKKLMDDTIAQVQTSGEAEKWFDKWFKNPIPPKNLNMNFELSDEMKALFKEPNDKALN","λmax,apo (nm)",587
same,"λmax,sat (nm)",584
same,ΔIstd,0.09
same,ΔRmax,0.73

# From patent US9625458B2, “Biosensor” (priority 2002, dated 2017)
